Structure probing of HIV-1 leader RNA with DMS

Values reported by Ye et al. 2022 (doi:10.1038/s41594-022-00746-2).

The 5' region of HIV-1 NL4-3 RNA (positions 1-437):
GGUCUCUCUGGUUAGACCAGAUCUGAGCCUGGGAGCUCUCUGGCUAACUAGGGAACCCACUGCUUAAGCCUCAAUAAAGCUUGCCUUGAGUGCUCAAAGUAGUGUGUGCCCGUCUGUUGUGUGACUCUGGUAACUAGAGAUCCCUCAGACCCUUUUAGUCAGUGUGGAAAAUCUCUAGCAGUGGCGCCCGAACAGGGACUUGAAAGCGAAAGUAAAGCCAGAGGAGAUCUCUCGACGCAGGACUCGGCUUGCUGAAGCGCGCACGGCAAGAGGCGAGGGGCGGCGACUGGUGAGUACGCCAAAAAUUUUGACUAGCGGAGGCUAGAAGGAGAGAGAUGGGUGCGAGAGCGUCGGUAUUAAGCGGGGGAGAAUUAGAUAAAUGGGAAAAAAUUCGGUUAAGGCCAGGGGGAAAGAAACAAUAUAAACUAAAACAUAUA

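Mutant RNA libraries with 1G, 2G or 3G starts, with or without cap, were folded at 37 °C for 30 min. Monomer and dimer bands were cut from native gels after folding in high salt (300 mM KCl, 5 mM MgCl2) or low salt (40 mM KCl, 0.1 mM MgCl2). Each band was probed in the gel with DMS (170 mM, 15 min, 37 °C), with ethanol as control, and sequenced.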

Values are winsor-normalised DMS reactivities of A and C; higher means more reactive, usually unpaired. One numbering serves 1G, 2G and 3G. A position is written with its base.

A271 (domain SL1): 3G uncapped high-salt dimer 0.46; 1G capped low-salt dimer 0.58; 2G uncapped high-salt dimer 0.53; 2G capped low-salt monomer 0.49.
C274 (domain SL1): 3G uncapped high-salt dimer 0.27; 1G capped low-salt dimer 0.32; 2G uncapped high-salt dimer 0.20; 2G capped low-salt monomer 0.67.
A276 (domain SL1): 3G uncapped high-salt dimer 0.40; 1G capped low-salt dimer 0.53; 2G uncapped high-salt dimer 0.32; 2G capped low-salt monomer 1.01.
C281: 3G uncapped high-salt dimer 0.34; 1G capped low-salt dimer 0.37; 2G uncapped high-salt dimer 0.41; 2G capped low-salt monomer 0.40.
C284 (domain SL2): 3G uncapped high-salt dimer 0.15; 1G capped low-salt dimer 0.16; 2G uncapped high-salt dimer 0.15; 2G capped low-salt monomer 0.24.
A286 (domain SL2): 3G uncapped high-salt dimer 0.57; 1G capped low-salt dimer 0.64; 2G uncapped high-salt dimer 0.66; 2G capped low-salt monomer 0.51.
C287 (domain SL2): 3G uncapped high-salt dimer 0.40; 1G capped low-salt dimer 0.40; 2G uncapped high-salt dimer 0.42; 2G capped low-salt monomer 0.29.
A293 (domain SL2): 3G uncapped high-salt dimer 0.81; 1G capped low-salt dimer 0.86; 2G uncapped high-salt dimer 0.91; 2G capped low-salt monomer 0.72.
A296 (domain SL2): 3G uncapped high-salt dimer 0.52; 1G capped low-salt dimer 0.61; 2G uncapped high-salt dimer 0.58; 2G capped low-salt monomer 0.58.
C297 (domain SL2): 3G uncapped high-salt dimer 0.12; 1G capped low-salt dimer 0.14; 2G uncapped high-salt dimer 0.13; 2G capped low-salt monomer 0.19.
C299 (domain SL2): 3G uncapped high-salt dimer 0.09; 1G capped low-salt dimer 0.06; 2G uncapped high-salt dimer 0.07; 2G capped low-salt monomer 0.06.
C300: 3G uncapped high-salt dimer 0.08; 1G capped low-salt dimer 0.08; 2G uncapped high-salt dimer 0.09; 2G capped low-salt monomer 0.05.
A301: 3G uncapped high-salt dimer 0.23; 1G capped low-salt dimer 0.28; 2G uncapped high-salt dimer 0.25; 2G capped low-salt monomer 0.22.
A302: 3G uncapped high-salt dimer 1.18; 1G capped low-salt dimer 1.21; 2G uncapped high-salt dimer 1.18; 2G capped low-salt monomer 1.16.
A303: 3G uncapped high-salt dimer 0.07; 1G capped low-salt dimer 0.08; 2G uncapped high-salt dimer 0.08; 2G capped low-salt monomer 0.07.
A304: 3G uncapped high-salt dimer 0.12; 1G capped low-salt dimer 0.17; 2G uncapped high-salt dimer 0.19; 2G capped low-salt monomer 0.13.
A305: 3G uncapped high-salt dimer 0.68; 1G capped low-salt dimer 0.72; 2G uncapped high-salt dimer 0.65; 2G capped low-salt monomer 0.74.
A311: 3G uncapped high-salt dimer 1.18; 1G capped low-salt dimer 1.32; 2G uncapped high-salt dimer 1.34; 2G capped low-salt monomer 1.06.
C312 (domain SL3): 3G uncapped high-salt dimer 0.09; 1G capped low-salt dimer 0.09; 2G uncapped high-salt dimer 0.08; 2G capped low-salt monomer 0.12.
A314 (domain SL3): 3G uncapped high-salt dimer 0.03; 1G capped low-salt dimer 0.05; 2G uncapped high-salt dimer 0.04; 2G capped low-salt monomer 0.04.
C316 (domain SL3): 3G uncapped high-salt dimer 0.05; 1G capped low-salt dimer 0.06; 2G uncapped high-salt dimer 0.05; 2G capped low-salt monomer 0.14.
A319 (domain SL3): 3G uncapped high-salt dimer 0.80; 1G capped low-salt dimer 0.97; 2G uncapped high-salt dimer 0.93; 2G capped low-salt monomer 0.82.
C322 (domain SL3): 3G uncapped high-salt dimer 0.03; 1G capped low-salt dimer 0.05; 2G uncapped high-salt dimer 0.03; 2G capped low-salt monomer 0.03.
A324 (domain SL3): 3G uncapped high-salt dimer 0.09; 1G capped low-salt dimer 0.09; 2G uncapped high-salt dimer 0.07; 2G capped low-salt monomer 0.13.
A326: 3G uncapped high-salt dimer 0.83; 1G capped low-salt dimer 0.93; 2G uncapped high-salt dimer 0.92; 2G capped low-salt monomer 0.81.
A327: 3G uncapped high-salt dimer 1.01; 1G capped low-salt dimer 1.08; 2G uncapped high-salt dimer 1.07; 2G capped low-salt monomer 0.93.
A330: 3G uncapped high-salt dimer 0.80; 1G capped low-salt dimer 0.89; 2G uncapped high-salt dimer 0.77; 2G capped low-salt monomer 0.94.
A332: 3G uncapped high-salt dimer 0.46; 1G capped low-salt dimer 0.54; 2G uncapped high-salt dimer 0.46; 2G capped low-salt monomer 0.60.
A334 (domain AUG): 3G uncapped high-salt dimer 0.36; 1G capped low-salt dimer 0.45; 2G uncapped high-salt dimer 0.41; 2G capped low-salt monomer 0.48.
A336 (domain AUG): 3G uncapped high-salt dimer 0.67; 1G capped low-salt dimer 0.82; 2G uncapped high-salt dimer 0.81; 2G capped low-salt monomer 0.74.

A selection of 2 entries from above:

A301 gave 3G uncapped high-salt dimer 0.23; 1G capped low-salt dimer 0.28; 2G uncapped high-salt dimer 0.25; 2G capped low-salt monomer 0.22.
A326 gave 3G uncapped high-salt dimer 0.83; 1G capped low-salt dimer 0.93; 2G uncapped high-salt dimer 0.92; 2G capped low-salt monomer 0.81.